## Mutational interference map of HIV-1 RNA dimerization

Source: Ye et al. 2022 (doi:10.1038/s41594-022-00746-2), supplementary data.

RNA: 5' end of the HIV-1 NL4-3 genome, made in vitro. Positions 1-437 read:
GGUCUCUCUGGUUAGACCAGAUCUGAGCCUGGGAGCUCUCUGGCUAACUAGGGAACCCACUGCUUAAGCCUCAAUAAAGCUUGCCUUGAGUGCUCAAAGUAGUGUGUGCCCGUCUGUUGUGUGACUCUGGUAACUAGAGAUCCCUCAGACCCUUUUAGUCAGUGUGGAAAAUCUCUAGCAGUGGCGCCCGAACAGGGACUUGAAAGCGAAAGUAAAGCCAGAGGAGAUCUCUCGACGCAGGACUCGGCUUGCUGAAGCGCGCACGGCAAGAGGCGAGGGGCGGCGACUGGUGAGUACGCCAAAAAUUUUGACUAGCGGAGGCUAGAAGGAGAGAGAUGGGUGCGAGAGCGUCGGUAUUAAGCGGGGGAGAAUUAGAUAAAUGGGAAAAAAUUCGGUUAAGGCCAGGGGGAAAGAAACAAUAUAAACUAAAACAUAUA

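Randomly mutated transcripts starting with one, two or three G (1G, 2G, 3G), capped or uncapped, were folded for 30 min at 37 °C. High salt was 300 mM KCl and 5 mM MgCl2, low salt 40 mM KCl and 0.1 mM MgCl2; monomer and dimer were parted on a native gel. Mutation frequencies in the two bands give Kdimer.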

Values are log2 Kdimer, the median over the changes at each position: higher means that changes there hinder dimer formation, below 0 that they favour it.
One numbering serves 1G, 2G and 3G.
A position is written with its base.

For G53 the result was 3G capped high-salt -0.01; 1G capped high-salt -0.19; 1G uncapped high-salt -0.03; 2G uncapped high-salt 0.07.
For A54 the result was 3G capped high-salt -0.15; 1G capped high-salt -0.52; 1G uncapped high-salt -0.07; 2G uncapped high-salt -0.35.
For A55 the result was 3G capped high-salt 0.10; 1G capped high-salt 0.17; 1G uncapped high-salt 0.12; 2G uncapped high-salt 0.11.
For C56 the result was 3G capped high-salt -0.03; 1G capped high-salt 0.16; 1G uncapped high-salt 0.31; 2G uncapped high-salt 0.36.
For C57 the result was 3G capped high-salt -0.71; 1G capped high-salt 0.15; 1G uncapped high-salt 0.07; 2G uncapped high-salt -0.08.
For C58 the result was 3G capped high-salt 0.08; 1G capped high-salt 0.45; 1G uncapped high-salt 0.27; 2G uncapped high-salt 0.20.
For A59 the result was 3G capped high-salt 0.05; 1G capped high-salt 0.48; 1G uncapped high-salt 0.31; 2G uncapped high-salt 0.17.
For C60 the result was 3G capped high-salt 0.18; 1G capped high-salt 0.61; 1G uncapped high-salt 0.44; 2G uncapped high-salt 0.38.
For U61 the result was 3G capped high-salt 0.16; 1G capped high-salt 0.44; 1G uncapped high-salt 0.37; 2G uncapped high-salt 0.21.
For G62 the result was 3G capped high-salt -0.01; 1G capped high-salt 0.27; 1G uncapped high-salt 0.28; 2G uncapped high-salt 0.19.
For C63 the result was 3G capped high-salt 0.02; 1G capped high-salt 0.49; 1G uncapped high-salt 0.43; 2G uncapped high-salt 0.29.
For U64 the result was 3G capped high-salt 0.09; 1G capped high-salt 0.40; 1G uncapped high-salt 0.34; 2G uncapped high-salt 0.23.
For U65 the result was 3G capped high-salt 0.28; 1G capped high-salt 0.19; 1G uncapped high-salt 0.16; 2G uncapped high-salt 0.15.
For A66 the result was 3G capped high-salt -0.16; 1G capped high-salt -0.26; 1G uncapped high-salt 0.22; 2G uncapped high-salt 0.13.
For A67 the result was 3G capped high-salt 0.00; 1G capped high-salt 0.12; 1G uncapped high-salt 0.18; 2G uncapped high-salt 0.10.
For G68 the result was 3G capped high-salt 0.12; 1G capped high-salt 0.89; 1G uncapped high-salt 0.41; 2G uncapped high-salt 0.39.
For C69 the result was 3G capped high-salt -0.23; 1G capped high-salt 0.25; 1G uncapped high-salt 0.12; 2G uncapped high-salt 0.13.
For C70 the result was 3G capped high-salt -0.03; 1G capped high-salt 0.25; 1G uncapped high-salt 0.18; 2G uncapped high-salt 0.14.
For U71 the result was 3G capped high-salt -0.10; 1G capped high-salt 0.48; 1G uncapped high-salt 0.03; 2G uncapped high-salt 0.28.
For C72 the result was 3G capped high-salt -0.18; 1G capped high-salt 0.18; 1G uncapped high-salt 0.12; 2G uncapped high-salt 0.09.
For A73 the result was 3G capped high-salt 0.03; 1G capped high-salt 0.18; 1G uncapped high-salt 0.13; 2G uncapped high-salt 0.00.
For A74 the result was 3G capped high-salt 0.02; 1G capped high-salt -0.10; 1G uncapped high-salt 0.10; 2G uncapped high-salt 0.04.
For U75 the result was 3G capped high-salt -0.03; 1G capped high-salt 0.01; 1G uncapped high-salt -0.04; 2G uncapped high-salt 0.14.
For A76 the result was 3G capped high-salt 0.08; 1G capped high-salt 0.15; 1G uncapped high-salt 0.11; 2G uncapped high-salt 0.26.
For A77 the result was 3G capped high-salt -0.09; 1G capped high-salt -0.05; 1G uncapped high-salt 0.05; 2G uncapped high-salt 0.11.
For A78 the result was 3G capped high-salt 0.05; 1G capped high-salt -0.15; 1G uncapped high-salt 0.06; 2G uncapped high-salt 0.11.
For G79 the result was 3G capped high-salt -0.06; 1G capped high-salt 0.00; 1G uncapped high-salt 0.25; 2G uncapped high-salt 0.11.
For C80 the result was 3G capped high-salt -0.22; 1G capped high-salt -0.16; 1G uncapped high-salt -0.09; 2G uncapped high-salt -0.15.
For U81 the result was 3G capped high-salt 0.05; 1G capped high-salt 0.01; 1G uncapped high-salt 0.01; 2G uncapped high-salt 0.03.
For U82 the result was 3G capped high-salt -0.07; 1G capped high-salt 0.12; 1G uncapped high-salt 0.13; 2G uncapped high-salt -0.04.

4 of these entries, quoted again:

- C60 = 3G capped high-salt 0.18; 1G capped high-salt 0.61; 1G uncapped high-salt 0.44; 2G uncapped high-salt 0.38
- A59 = 3G capped high-salt 0.05; 1G capped high-salt 0.48; 1G uncapped high-salt 0.31; 2G uncapped high-salt 0.17
- U82 = 3G capped high-salt -0.07; 1G capped high-salt 0.12; 1G uncapped high-salt 0.13; 2G uncapped high-salt -0.04
- U61 = 3G capped high-salt 0.16; 1G capped high-salt 0.44; 1G uncapped high-salt 0.37; 2G uncapped high-salt 0.21